A mixed list of measured activities; the numbers were collected in NIAID ChemDB.

Common to all: tests on isolated targets; agent: Hepatitis C virus

a–b is a range or a potency band. Rows are shuffled and stem from different studies. ICn: concentration for n% inhibition. Blank or dashed fields: not listed here.

| SMILES | strain | protein | read by | read-out | value |
|---|---|---|---|---|---|
| FC(F)(F)c1cccc(Oc2ccc(-c3cnc4c(-c5nn[nH]n5)cnn4c3C3CCCCC3)cc2)c1 | - | RNA-dependent RNA polymerase | - | IC50 | 1–10 µM |
| C=CC1CC1(NC(=O)[C@@H]1C[C@@H](OC(=O)Nc2c(C)cccc2Cl)CN1C(=O)[C@@H](NC(=O)OC(C)(C)C)C(C)(C)C)C(=O)NS(=O)(=O)C1CC1 | BMS/H77C/J416S | NS3/NS4A protease | - | IC50 | 0.1–1 µM |
| CC(=O)N[C@@H](CC(=O)O)C(=O)N[C@H](CC(C(=O)O)C(=O)O)C(=O)N[C@H](C(=O)N[C@@H](CCC(=O)O)C(=O)N[C@@H](CC1CCCCC1)C(=O)N[C@@H](CS)C(=O)C(=O)O)C(c1ccccc1)c1ccccc1 | - | NS3/NS4A serine protease | - | Ki | 0.00004 µM |
| C=CC1CC1(NC(=O)[C@@H]1C[C@@H](OC(=O)Nc2ccccc2N2CCOCC2)CN1C(=O)[C@@H](NC(=O)OC(C)(C)C)C(C)(C)C)C(=O)NS(=O)(=O)C1CC1 | BMS/H77C/J416S | NS3/NS4A protease | - | IC50 | <0.1 µM |
| CC[C@H](C)[C@H](NC(=O)[C@H](CCC(=O)O)NC(=O)[C@@H](NC(=O)[C@@H](CC(C(=O)O)C(=O)O)NC(=O)[C@H](CC(=O)O)NC(C)=O)C(c1ccccc1)c1ccccc1)C(=O)N[C@@H](CS)C(=O)C(=O)O | - | NS3/NS4A serine protease | - | Ki | 0.0002 µM |
| CCC[C@]1(CC(=O)O)OCCc2c1[nH]c1c(C)ccc(C#N)c21 | 320-3-1 genotype 1B | NS5B polymerase | - | IC50 | 0.4 µM |
| O=C(O)CCC(=O)ON[C@H](CC(C(=O)O)C(=O)O)C(=O)N[C@H](C(=O)N[C@@H](CCC(=O)O)C(=O)N[C@@H](CC1CCCCC1)C(=O)N[C@@H](CS)C(=O)C(=O)O)C(c1ccccc1)c1ccccc1 | - | NS3/NS4A serine protease | - | Ki | 0.02 µM |
| C=CC1CC1(NC(=O)[C@@H]1C[C@@H](OC(=O)N(C(C)C)C(C)C)CN1C(=O)[C@@H](NC(=O)OC(C)(C)C)C(C)(C)C)C(=O)NS(=O)(=O)C1CC1 | BMS/H77C/J416S | NS3/NS4A protease | - | IC50 | <0.1 µM |
| COc1ccc(-c2cnc3c(C#N)cnn3c2C2CCCCC2)cc1 | - | RNA-dependent RNA polymerase | - | IC50 | >10 µM |
| Cc1ccc(S(=O)(=O)NC(=O)[C@H](CC(C)C)NC(=O)[C@@H]2C[C@H](n3cc(-c4ccccc4)nn3)CN2C(=O)[C@@H](NC(=O)C(=O)OC(C)(C)C)C(C)(C)C)cc1 | - | Nonstructural protein 3/4A | FRET | IC50 | >100 µM |
| C=CC1CC1(NC(=O)[C@@H]1C[C@@H](OC(=O)Nc2cc(C)nn2-c2ccccc2)CN1C(=O)[C@@H](NC(=O)OC(C)(C)C)C(C)(C)C)C(=O)NS(=O)(=O)C1CC1 | BMS/H77C/J416S | NS3/NS4A protease | - | IC50 | <0.1 µM |
| O=C(O)c1cc(-c2ccc(Cl)cc2)n2nc(-c3ccccc3)cc2n1 | - | RNA-dependent RNA polymerase | - | IC50 | >10 µM |
| C=CC1CC1(NC(=O)[C@@H]1C[C@@H](OC(=O)Nc2ccccc2C(=O)OCC)CN1C(=O)[C@@H](NC(=O)OC(C)(C)C)C(C)(C)C)C(=O)NS(=O)(=O)C1CC1 | BMS/H77C/J416S | NS3/NS4A protease | - | IC50 | <0.1 µM |
| CC(=O)N[C@@H](CC(=O)O)C(=O)N[C@H](CC(C(=O)O)C(=O)O)C(=O)N[C@@H](Cc1c[nH]c2cccc(C(=O)O)c12)C(=O)N[C@@H](CCC(=O)O)C(=O)N[C@@H](CCC(=O)O)C(=O)N[C@@H](CS)C(=O)C(=O)O | - | NS3/NS4A serine protease | - | Ki | 0.0000092 µM |
| C=CC1CC1(NC(=O)[C@@H]1C[C@@H](OC(=O)Nc2ccccc2C)CN1C(=O)[C@@H](NC(=O)OC(C)(C)C)C(C)(C)C)C(=O)O | BMS/H77C/J416S | NS3/NS4A protease | - | IC50 | >10 µM |
| O=C(/C=C/CCC(=O)Nc1ccc(-c2nc3ccccc3[nH]2)cc1)Nc1ccc(-c2nc3ccccc3[nH]2)cc1 | - | Nonstructural protein 3 NTPase/helicase | - | IC50 | 0.7 µM |
| C=CC1CC1(NC(=O)[C@@H]1C[C@@H](OC(=O)Nc2cc(C)ccc2-n2nccn2)CN1C(=O)[C@@H](NC(=O)OC(C)(C)C)C(C)(C)C)C(=O)NS(=O)(=O)C1CC1 | BMS/H77C/J416S | NS3/NS4A protease | - | IC50 | <0.1 µM |
| CC[C@@H](C=O)NC(=O)[C@@H]1C[C@@H](OCc2ccccc2)CN1C(=O)[C@@H](NC(=O)/C(=N\OC)c1csc(N)n1)C(C)C | - | NS3 protease | - | Ki | 1–100 µM |
| O=C(O)c1cc2ncc(-c3ccccc3)c(-c3cccc(Oc4ccccc4)c3)n2n1 | - | RNA-dependent RNA polymerase | - | IC50 | >10 µM |
| CCOC(=O)c1cccc(NC(=O)O[C@@H]2C[C@@H](C(=O)N[C@H](C=O)CC)N(C(=O)[C@@H](NC(=O)[C@@H](NC(=O)c3cnccn3)C(C)C)C(C)C)C2)c1 | - | NS3 protease | - | Ki | >100 µM |
| O=C(O)c1cnn2c(C3CCCCC3)c(-c3ccc(F)c(F)c3)cnc12 | - | RNA-dependent RNA polymerase | - | IC50 | 1–10 µM |
| C=CC1CC1(NC(=O)[C@@H]1C[C@@H](OC(=O)[n+]2cccc(C(C)=O)c2)CN1C(=O)[C@@H](NC(=O)OC(C)(C)C)C(C)(C)C)C(=O)NS(=O)(=O)C1CC1 | BMS/H77C/J416S | NS3/NS4A protease | - | IC50 | 0.1–1 µM |
| O=C(N[C@@H](Cc1ccc(O)cc1)C(=O)O)c1cnn2c(C3CCCCC3)c(-c3ccc(Cl)cc3)cnc12 | - | RNA-dependent RNA polymerase | - | IC50 | <1 µM |
| CC[C@@H](C=O)NC(=O)[C@@H]1C[C@@H](OCc2ccccc2)CN1C(=O)[C@@H](NC(=O)c1c(-c2ccccc2Cl)noc1C)C(C)C | - | NS3 protease | - | Ki | >100 µM |
| CS(=O)(=O)c1ccc(COc2ccc(-c3cnc4c(-c5nn[nH]n5)cnn4c3C3CCCCC3)cc2)cc1 | - | RNA-dependent RNA polymerase | - | IC50 | <1 µM |
| CC(=O)N[C@@H](CC(=O)O)C(=O)N[C@@H](C(=O)N[C@H](C(=O)N[C@@H](CCC(=O)O)C(=O)N[C@@H](CC1CCCCC1)C(=O)N[C@@H](CS)C(=O)C(=O)O)C(c1ccccc1)c1ccccc1)C(c1ccccc1)c1ccccc1 | - | NS3/NS4A serine protease | - | Ki | 11 µM |